{"source": "paper PMC4207539", "about": "(Journal of Medicinal Chemistry, 2014)", "test_system": "VEEV TrD strain", "assay_type": "cell-based, Venezuelan equine encephalitis virus"}
{"smiles": "CCN1CCN(Cc2nc3ccc([N+](=O)[O-])cc3c(=O)n2-c2ccccc2F)CC1", "note": "[compound 1, 2-((4-Ethylpiperazin-1-yl)methyl)-3-(2-fluorophenyl)-6-nitroquinazolin-4(3H)-one]", "values": [{"measurement": "titer reduction, TrD strain", "result": "no measurable viral replication"}]}
